Source: patent US6774235B2, “Trisubstituted 1,3,5-triazine derivatives” (Janssen Pharmaceutica N.V., priority 1998, dated 2004)

Test system: HIV-1 (wildtype IIIB)
Assay type: cell-based
Conditions: selectivity index, ratio of CC50 to IC50
Description: A rapid, sensitive and automated assay procedure was used for the in vitro evaluation of anti-HIV agents. An HIV-1 (wildtype IIIB) transformed T4-cell line, MT-4, which was previously shown (Koyanagi et al., Int. J Cancer, 36, 445-451, 1985) to be highly susceptible to and permissive for HIV infection, served as the target cell line. Inhibition of the HIV-induced cytopathic effect was used as the end point. […] The percent protection achieved by the compound in HIV-infected cells was calculated by the following formula: [formula]
whereby (ODT)HIV is the optical density measured with a given concentration of the test compound in HIV-infected cells; (ODC)HIV is the optical density measured for the control untreated HIV-infected cells; (ODC)MOCK is the optical density measured for the control untreated mock-infected cells; all optical density values were determined at 540 nm. […] The ratio of CC50 to IC50 was defined as the selectivity index (SI).

SMILES | SI
Cc1ccc(Cl)c(C)c1Nc1nc(N)nc(Nc2ccc(C#N)cc2)n1 [Compound 28] | 9106
COc1cccc(OC)c1Oc1nc(N)nc(Nc2ccc(C#N)cc2)n1 [Compound 46] | >3205
N#Cc1ccc(Nc2nc(N)nc(Sc3c(Cl)cccc3Cl)n2)cc1 [Compound 19, 4-[[4-amino-6-[(2,6-dichlorophenyl)thio]-1,3,5-triazin-2-yl]amino]benzonitrile] | 11285
Cc1ccc(Cl)c(C)c1Nc1nc(NO)nc(Nc2ccc(C#N)cc2)n1 [Compound 31] | 1980
N#Cc1ccc(Nc2nc(N)nc(Oc3ccc(Cl)cc3Cl)n2)cc1 [Compound 38] | >14084
N#Cc1ccc(Nc2nc(NO)nc(Nc3c(Cl)cccc3Cl)n2)cc1 [Compound 4, 4-[[[6-(2,6-dichlorophenylamino)-4-(hydroxylamino)]-1,3,5-triazin-2-yl]amino]-benzonitrile] | 4187
CC(C)c1cc(Br)c(Nc2nc(N)nc(Nc3ccc(C#N)cc3)n2)c(Br)c1 [Compound 77, 4-[[4-amino-6-[[2,6-dibromo-4-(1-methylethyl)phenyl]amino]-1,3,5-triazin-2-yl]-amino]benzonitrile] | 17431
N#Cc1ccc(Nc2nc(N)nc(NNc3c(Cl)cc(Cl)cc3Cl)n2)cc1 [Compound 21] | 27789
N#Cc1ccc(Nc2nc(N)nc(Oc3c(Cl)cc(F)cc3Cl)n2)cc1 [Compound 45] | 7258
N#Cc1ccc(Nc2nc(N)nc(Oc3cccc4[nH]ccc34)n2)cc1 [Compound 83] | 126
N#Cc1ccc(Nc2nc(N)nc(Oc3c(Cl)c(Cl)c(Cl)c(Cl)c3Cl)n2)cc1 [Compound 42] | >303
Cc1cc(Cl)cc(Cl)c1Oc1nc(N)nc(Nc2ccc(C#N)cc2)n1 [Compound 34] | 3658
CC(=O)c1cc(F)cc(F)c1Oc1nc(N)nc(Nc2ccc(C#N)cc2)n1 [Compound 49] | >1308
Cc1cccc(Cl)c1Nc1nc(N)nc(Nc2ccc(C#N)cc2)n1 [Compound 7, 4-[[4-amino-6-[(2-chloro-6-methylphenyl)amino]-1,3,5-triazin-2-yl]amino]benzonitrile] | 10187
Cc1cc(Cl)c(C)c(C)c1Oc1nc(N)nc(Nc2ccc(C#N)cc2)n1 [Compound 52] | 639
N#Cc1ccc(Nc2nc(N)nc(Nc3c(Br)cc(Br)cc3Br)n2)cc1 [Compound 72] | 3259
Cc1cc([N+](=O)[O-])cc(C)c1Oc1nc(N)nc(Nc2ccc(C#N)cc2)n1 [Compound 41, 4-[[4-amino-6-(4-nitro-2,6-dimethylphenoxy)-1,3,5-triazin-2-yl]amino]benzonitrile] | 6102
CC(=O)c1cc(Cl)cc(Cl)c1Oc1nc(N)nc(Nc2ccc(C#N)cc2)n1 [Compound 39] | 1
Cc1cc(I)cc(C)c1Oc1nc(N)nc(Nc2ccc(C#N)cc2)n1 [Compound 60] | 15172
COc1cc(OC)c(Nc2nc(N)nc(Nc3ccc(C#N)cc3)n2)c(OC)c1 [Compound 68] | 4173
N#Cc1ccc(Nc2nc(N)nc(Oc3c(F)cc(F)cc3F)n2)cc1 [Compound 44] | >19607
